Compound potency records, mixed from different reports. Data source: NIAID ChemDB in PubChem.

All rows: tests on isolated targets; species: HIV-1; protein: Reverse transcriptase; read by: ELISA; measure: IC50

ICn is the concentration giving n% inhibition. Neighbouring rows are from separate reports.

structure | result
Oc1ccccc1C=NCCN=Cc1ccccc1O | >6 µM
CCN1C(=O)c2ccnnc2Oc2ccc(C)cc21 | <330 µM
CC(=O)O[C@@H]([C@@H](C)[C@H](OC(C)=O)[C@H](C)/C=C/C=O)[C@H](C)[C@@H](OC(C)=O)[C@@H](C)/C=C/C=C(/C)C(=O)NC1=CC(=O)c2c(c(O)c(C)c3oc(C)cc23)C1=O | >300 µM
CC1CN(c2nc3c(cc2F)c(=O)c(C(=O)O)cn3-c2cccc3ccccc23)CCN1.CS(=O)(=O)O | ~1 µg/mL
CCOC(CC(=O)OCC(C)C)n1ccc(=O)[nH]c1=O | 16.5 µM
NC(=O)c1cc2c([nH]c3ccccc32)c(-c2ccc(CO)o2)n1 | >65.36 µM
C[n+]1ccc(-c2c3nc(c(-c4cc[n+](C)cc4)c4ccc([nH]4)c(-c4cc[n+](C)cc4)c4nc(c(-c5cc[n+](C)cc5)c5ccc2[nH]5)C=C4)C=C3)cc1 | >6 µM
COC(=O)/C(C)=C\C=C\[C@H](C)[C@H](OC(C)=O)[C@@H](C)[C@@H](OC(C)=O)[C@@H](C)[C@H](OC(C)=O)[C@H](C)[C@H](/C=C/O[C@@]1(C)Oc2c(C)c(O)c3c(c2C1=O)C(=O)C=C(N)C3=O)OC | >300 µM
CS(=O)(=O)O.N[C@H]1CCN(c2nc3c(cc2F)c(=O)c(C(=O)O)cn3-c2cccc3ccccc23)C1 | >1 µg/mL
CCOC(=O)CC(OCC)n1ccc(=O)[nH]c1=O | 0.45 µM
CS(=O)(=O)O.O=C(O)c1cn(-c2cccc3ccccc23)c2nc(N3CCNCC3)c(F)cc2c1=O | >1 µg/mL
CSc1ncc(C(N)=O)c(Nc2ccc3cn[nH]c3c2)n1 | ~0.1 µg/mL
CC(=O)O[C@@H]([C@H](C)[C@H](O)[C@H](C)[C@@H](O)[C@@H](C)/C=C/C=C(/C)C(=O)NC1=CC(=O)c2c(c(O)c(C)c3oc(C)cc23)C1=O)[C@H](C)/C=C\C=O | >300 µM
CC1CN(c2cc3c(cc2F)c(=O)c(C(=O)O)cn3-c2ccc3ccccc3c2)CCN1.CS(=O)(=O)O | <1 µg/mL
CCOC(CC(=O)OC)n1cc(C)c(=O)[nH]c1=O | 0.4 µM
CC(C)=CCN1Cc2cccc3[nH]c(=O)n(c23)CC1C | 0.16 µM
Cc1cc(C)c2c(c1)N(CC1CC1)C(=O)c1ccnnc1O2 | <330 µM
CCOC(CC(=O)OCC(C)C)n1cc(C)c(=O)[nH]c1=O | 7 µM
CS(=O)(=O)O.N[C@H]1CCN(c2cc3c(cc2F)c(=O)c(C(=O)O)cn3-c2ccc3ccccc3c2)C1 | 1 µg/mL
CSc1ncc(C(=O)NCCCn2ccnc2)c(Nc2ccc3[nH]ncc3c2)n1 | ~0.1 µg/mL
COC(=O)c1cc(O)c(O)c(O)c1 | 80.1 µM
CCNC(=O)c1cnc(SC)nc1Nc1ccc2[nH]ncc2c1 | ~0.1 µg/mL
COc1ccc2c(c1)N(C(C)C)C(=O)c1ccnnc1O2 | <330 µM
CSc1ncc(C(=O)N(C)CCO)c(Nc2ccc3cn[nH]c3c2)n1 | ~0.1 µg/mL
CCOCn1c2c(c(=O)[nH]c1=O)CCCCC2c1ccccc1 | 101 µM
CS(=O)(=O)O.O=C(O)c1cn(-c2cccc3ccccc23)c2cc(N3CCNCC3)c(F)cc2c1=O | >1 µg/mL
O=C(O)[C@H]1O[C@@H](Oc2cc3oc(-c4ccc(O)cc4)cc(=O)c3c(O)c2O)[C@H](O)[C@@H](O)[C@@H]1O | ~433 µM